Anti-infective test results gathered from many reports (values: NIAID ChemDB through PubChem).

Common to all: tests in culture

ECn is the concentration giving n% inhibition of infection, replication or growth.

Oc1ccccc1N=Cc1ccc(F)cc1 ; agent: Cryptococcus neoformans ; strain or isolate: F-10 ; endpoint: MIC99 ; value: 8 µg/mL
Cn1ncc2c1C(=O)c1cccc(Br)c1C2=O ; agent: Cryptosporidium parvum ; endpoint: inhibition ; dose: 100 µM ; value: 99%
NC[C@@H]1O[C@H](O[C@H]2[C@@H](O)[C@H](O[C@@H]3[C@@H](O)[C@H](N)C[C@H](N)[C@H]3O[C@H]3O[C@H](CO)[C@@H](O)[C@H](O)[C@H]3N)O[C@@H]2CO)[C@H](N)[C@@H](O)[C@@H]1O ; agent: Cryptosporidium parvum ; strain or isolate: IOWA ; cells: MDCK ; method: luminescence ; endpoint: inhibition ; dose: 100 µg/mL ; value: 15.2%
O=C1/C(=C/c2cccc(O)c2)Oc2cc(O)ccc21 ; agent: Cryptosporidium parvum ; endpoint: inhibition ; dose: 10 µM ; value: 14%
Cc1nc(NCCCCNc2ccnc3cc(Cl)ccc23)nc(-c2ccccc2)c1C(=O)OC(C)C ; agent: Cryptococcus gattii ; strain or isolate: 547/OTTI-97-PI-10 ; endpoint: MIC99 ; value: 16 µg/mL
COc1cc(O)c2c(O)c(C(=O)c3ccccc3)oc2c1 ; agent: Cryptosporidium parvum ; endpoint: inhibition ; dose: 10 µM ; value: 36%
CN[C@H]1CC[C@@H](c2ccc(Cl)c(Cl)c2)c2ccccc21 ; agent: Cryptococcus neoformans ; strain or isolate: C45 ; method: broth dilution ; endpoint: MFC ; value: 6 µg/mL
O=C1/C(=C/c2ccc(O)cc2O)Oc2cc(O)ccc21 ; agent: Cryptosporidium parvum ; endpoint: inhibition ; dose: 10 µM ; value: 0%
C[C@@H](c1nc(-c2ccc(C#N)cc2)cs1)[C@](O)(Cn1cncn1)c1cc(F)ccc1F ; agent: Cryptococcus gattii ; strain or isolate: VG IIa ; method: broth dilution ; endpoint: MIC50 ; value: 0.031 µg/mL
Cc1ccc2c(c1)C(=O)c1c(cnn1C)C2=O ; agent: Cryptosporidium parvum ; endpoint: inhibition ; dose: 50 µM ; value: 77%
NCCCC[C@H](NC(=O)[C@@H](N)CCCCN)C(=O)N[C@@H](CCC(N)=O)C(=O)N[C@@H](CCCN=C(N)N)C(=O)O ; agent: Cryptococcus neoformans ; strain or isolate: ATCC 32264 ; endpoint: inhibition ; dose: 100 µM ; value: 100%
Oc1ccc(O)c(C=Nc2ccccc2O)c1 ; agent: Cryptococcus gattii ; strain or isolate: 547/OTTI-97-PI-10 ; endpoint: MIC99 ; value: 8 µg/mL
CCn1nc(C)c2c1C(=O)c1ccccc1C2=O ; agent: Cryptosporidium parvum ; endpoint: inhibition ; dose: 100 µM ; value: <10%
CCOC(=O)c1c(C)nc(NCCCCNc2ccnc3cc(Cl)ccc23)nc1-c1ccc(F)cc1 ; agent: Cryptococcus neoformans ; strain or isolate: 27JF ; endpoint: MIC99 ; value: 16 µg/mL
COc1cc(/C=C/C=C\c2ccccc2)oc(=O)c1C ; agent: Cryptosporidium parvum ; endpoint: inhibition ; dose: 25 µM ; value: 5%
Oc1ccccc1C=Nc1ccccc1O ; agent: Cryptococcus neoformans ; strain or isolate: 28JF ; endpoint: MIC99 ; value: 11.3 µg/mL
COc1cc(/C=C2\Oc3cc(O)cc(O)c3C2=O)cc(OC)c1O ; agent: Cryptosporidium parvum ; endpoint: inhibition ; dose: 10 µM ; value: 1%
CCOC(=O)c1c(C)nc(NCCCNc2ccnc3cc(Cl)ccc23)nc1-c1ccccc1 ; agent: Cryptococcus gattii ; strain or isolate: L-28/02 ; endpoint: MIC99 ; value: 8 µg/mL
COc1cc(/C=C2\Oc3cc(O)cc(O)c3C2=O)ccc1O ; agent: Cryptosporidium parvum ; endpoint: EC50 ; value: 25–50 µM
Cn1nc(Cc2ccc(Cl)cc2)c2ccccc2c1=O ; agent: Cryptococcus neoformans ; strain or isolate: Clinical isolate (IM 983036) ; method: broth dilution ; endpoint: MIC50 ; value: ≥250 µg/mL
Cn1cc2c(n1)C(=O)c1cc3ccccc3c(O)c1C2=O ; agent: Cryptosporidium parvum ; endpoint: inhibition ; dose: 10 µM ; value: <10%
C[C@@H](c1ncncc1F)[C@](O)(Cn1cncn1)c1ccc(F)cc1F ; agent: Cryptococcus gattii ; strain or isolate: CBS 11816 ; method: broth dilution ; endpoint: MIC ; value: 1 µg/mL
Cc1nc(NCCCCNc2ccnc3cc(Cl)ccc23)nc(-c2ccccc2[N+](=O)[O-])c1C(=O)OC(C)C ; agent: Cryptococcus gattii ; strain or isolate: ATCC 32608 ; endpoint: MIC99 ; value: 16 µg/mL
O=C(c1ccccc1)c1oc2cc(O)cc(O)c2c1O ; agent: Cryptosporidium parvum ; endpoint: inhibition ; dose: 10 µM ; value: 10%
CC(=O)OC[C@H]1O[C@@H](O[C@@H]2[C@@H](N=[N+]=[N-])[C@H](O)[C@H](O)[C@H]3OC(C)(C)O[C@H]32)[C@H](OC(C)=O)[C@@H](OC(C)=O)[C@H]1OC(C)=O ; agent: Cryptococcus neoformans ; strain or isolate: ATCC 32264 ; method: broth dilution / turbidity ; endpoint: inhibition ; dose: 250 µg/mL ; value: 45.87%
CC(=O)Oc1ccccc1C(=O)Nc1ncc([N+](=O)[O-])s1 ; agent: Cryptosporidium parvum ; cells: A549 ; endpoint: inhibition ; dose: 8 µg/mL ; value: 55.4%
COc1ccc(/C=C\C=C\c2cc(OC)cc(=O)o2)cc1 ; agent: Cryptosporidium parvum ; endpoint: inhibition ; dose: 50 µM ; value: 9%

The first 2 rows once more:

{"SMILES": "Oc1ccccc1N=Cc1ccc(F)cc1", "agent": "Cryptococcus neoformans", "strain or isolate": "F-10", "endpoint": "MIC99", "value": "8 µg/mL"}
{"SMILES": "Cn1ncc2c1C(=O)c1cccc(Br)c1C2=O", "agent": "Cryptosporidium parvum", "endpoint": "inhibition", "dose": "100 µM", "value": "99%"}

Two numbers with a dash give a range or band. MIC50, MIC90 and the like: level of inhibition, or share of isolates inhibited. Conditions beyond the fields shown may differ between rows. Percent inhibition refers to the dose given; in toxicity tests it is the harm to the cells.